Tests used:
human erythrocytes [1] = assay type: cell-based; conditions: human erythrocytes in the presence of lectin, 24 h, 4°C
Experimental: (§1) Viral (whole virus) and bacterial NA activity as well as their inhibition were measured by using a fluorescence (FL) assay with the substrate 2′-(4-methylumbelliferyl)-α-D-N-acetylneuraminic acid sodium salt hydrate (MUNANA, 100 μM; Sigma-Aldrich GmbH, Taufkirchen, Germany), and/or a hemagglutination (HA)-based NA inhibition assay (HA assay) with human erythrocytes (Institute of Transfusion Medicine, University Hospital Jena, Jena, Germany), both assays as published recently (Richter et al., [2015]). Recombinant NanA (rNanA) and total precipitated bacterial protein of S. pneumoniae DSM20566 were used in FL and HA assays. Interference of the compounds with the FL signal (self-fluorescence and quenching) was excluded as described previously (Richter et al., [2015]). […] Each compound was tested at least three times in both NA inhibition assays.
Supplementary Table 1. […]
eTest compounds lysed the human erythrocytes (4 h at 37°C and 12 h at 4°C).

human erythrocytes [2] = assay type: cell-based; conditions: 2 h at 4°C
Experimental: as §1
Supplementary Table 1. Assay interference phenomena of test compounds in the HA-based […]
sample concentrations [µM] in viral HA-assay bacterial HA-assay […]
hem- prevention of erythrocyte hem- erythrocyte agglutinationa virus-induced lysisc agglutinationd lysise […]
cTest compounds lysed the human erythrocytes (2 h at 4°C). […]

| SMILES | sample concentrations provoking hemagglutination, bacterial HA-assay (human erythrocytes [1]) | sample concentrations provoking hemagglutination, viral HA-assay (human erythrocytes [2]) | sample concentrations provoking prevention of virus-induced hemagglutination, viral HA-assay (human erythrocytes [2]) |
| --- | --- | --- | --- |
| O=S(=O)(O)c1ccc2c(/N=N/c3ccc(/N=N/c4ccccc4)cc3)c(O)ccc2c1 [Compound 3] | 31.6 to 100 µM | 3.16 to 100 µM | no |
| O=S(=O)(O)c1cc(/N=N/c2c(O)ccc3ccccc23)c2c(S(=O)(=O)O)cccc2c1 [Compound 15] | no | 100 or no | no |
| Cc1ccccc1/N=N/c1ccc(/N=N/c2c(O)ccc3cc(S(=O)(=O)O)cc(S(=O)(=O)O)c23)c(C)c1 [Compound 5] | no | no |  |
| Cc1cc(N=Nc2ccc(N=Nc3c(O)c(S(=O)(=O)O)cc4cc(S(=O)(=O)O)ccc34)cc2C)ccc1N=Nc1ccc2cc(S(=O)(=O)O)cc(S(=O)(=O)O)c2c1 [Compound 1, 7-[2-[4-[2-[4-[2-(2-hydroxy-3,6-disulfo-1-naphthalenyl)diazenyl]-2-methylphenyl]diazenyl]-2-methylphenyl]diazenyl]-1,3-naphthalenedisulfonic acid] | no | no | no |
| O=S(=O)(O)c1cc(S(=O)(=O)O)c2c(/N=N/c3cccc4ccccc34)c(O)ccc2c1 [Compound 16] | no | no | no |
| O=[N+]([O-])c1ccc(/N=N/c2c(O)ccc3cc(S(=O)(=O)O)ccc23)cc1 [Compound 11] | no | no | no |
| O=[N+]([O-])c1ccc(/N=N/c2c(O)c(S(=O)(=O)O)cc3cc(S(=O)(=O)O)ccc23)cc1 [Compound 12] | no | no | no |
| O=S(=O)(O)c1ccc(/N=N/c2ccc(/N=N/c3c(O)c(S(=O)(=O)O)cc4cc(S(=O)(=O)O)ccc34)cc2)cc1 [Compound 9] | no | no | no |
| O=S(=O)(O)c1cc2cccc(S(=O)(=O)O)c2c(O)c1/N=N/c1ccccc1 [Compound 17] | no | no | no |
| O=S(=O)(O)c1ccc2c(/N=N/c3c(O)ccc4ccccc34)cccc2c1 [Compound 14] | no | 31.6 to 100 µM | no |
| O=S(=O)(O)c1ccc2c(/N=N/c3ccccc3)c(O)ccc2c1 [Compound 10] | no | 100 or no | no |
| O=S(=O)(O)c1ccc2c(/N=N/c3ccc(Sc4ccc(/N=N/c5c(O)ccc6cc(S(=O)(=O)O)ccc56)cc4)cc3)c(O)ccc2c1 [Compound 2] | no | no |  |
| Cc1ccccc1/N=N/c1ccc(/N=N/c2c(O)ccc3cc(S(=O)(=O)O)ccc23)c(C)c1 [Compound 4] | no | 1 to 100 µM | no |
| COc1cc(/N=N/c2ccc(S(=O)(=O)O)cc2)ccc1/N=N/c1c(O)ccc2ccccc12 [Compound 7] | no | 1 to 100 µM | no |
| COc1cc(/N=N/c2ccc(S(=O)(=O)O)cc2)ccc1/N=N/c1c(O)ccc2cc(S(=O)(=O)O)ccc12 [Compound 8] | no | no | no |
| O=[N+]([O-])c1cccc(/N=N/c2c(O)c(S(=O)(=O)O)cc3cc(S(=O)(=O)O)ccc23)c1 [Compound 13] | no | no | no |
| O=S(=O)(O)c1ccc(/N=N/c2ccc(/N=N/c3ccc(O)c4ccccc34)cc2)cc1 [Compound 6] | no | 100 or no | no |
